# Source: the supplement of paper PMC12637763
# This is one part of the list. Env chains of viruses from a treatment-interruption trial, translated from the printed DNA. IC50 / IC80 of two broadly neutralizing antibodies; lower = more sensitive virus; >50 µg/ml means not reached and <0.001 µg/ml is below the lowest dose. No active / inactive call.
# Experiments:
# [1] = target: antibody 10-1074; experiment: neutralization IC50; higher = virus less sensitive to the antibody
# Description: (§1)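 Pseudovirus bearing the Env chain mixed with antibody, from 50 µg/ml in fivefold dilutions, on TZM-bl reporter cells, in duplicate.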
# [2] = target: antibody 3BNC117; experiment: as above
# Description: as §1
# [3] = target: antibody 10-1074; experiment: neutralization IC80; higher = virus less sensitive to the antibody
# Description: as §1
# [4] = target: antibody 3BNC117; experiment: as above
# Description: as §1
Binder,neutralization IC50 [1] [µg/mL],neutralization IC50 [2] [µg/mL],neutralization IC80 [3] [µg/mL],neutralization IC80 [4] [µg/mL]
"HIV-1 Env, reservoir clone (protein) MKVKGIRKNYQHLWRWGTMLTMLLGMLMICSAVGNLWVTVYYGVPVWKDASTTLFCASDAKGYETEVHNVWATHACVPTDPSPQELVLKNVTEDFNMWKNNMVEQMQEDIISLWDQSLKPCVQLTPLCVTLNCTNITRGNDTDGTTNGNNTINSDTTGDMKNCSFNISSGIQDRVKKDYAYFYNLDIVQITDDNSSNSYRLINCNTSVITQACPKVSFEPIPIHYCAPAGFAILKCNDKKFNGTGKCKNVSTVQCTHGIKPVVSTQLLLNGSLAEEEVVIRSENFTNNGKNIIVQLKEAVEINCTRVGNNTRKSIHMGPGRAFYANGDIIGNIRLAHCNISKARWNKTLRQIAIKLKEQYNTKTIKFTKSSGGDLEITTHMFNCGGEFFFCNTTQLFNSTWDNSTWNDTGNWNDNTDETITLPCKIKQIINMWQRAGRAMYAPPISGNISCSSNITGLLLTRDGGKNETVSNETVSKEEVFRPGGGDMRDNWRSELYKYKVVKIEPLGVAPTKAKRRVVQREKRAVGLGALFLGFLGAAGSTMGAASITLTAQARQLMSGIVQQQNNLLRAIEAQQHLLQLTVWGIKQLQARVLAVERYLKDQQLLGIWGCSGKLICTTAVPWNTSWSNKSYNEIWDKMTWMQWEREIDNYTGIIYTLIHESQNQQDKNEQELLELDHWASLWNWFDISNWLWYIRLFIMIVGGLVGLRIVFAVLSIVNRIRQGYSPISLQTLLPAQREPDRPGGIEEEGGERDRGRSTRLVHGSLALIWSDLSSLCIFSYHRLRDLLLIAARIVELLGRRGWELLKYWWNLLQYWSQELKNSAVSLLDAVAIAVAEGTDRIIEAAQRAWRRIRQGSERVLL",1.26,0.202,19.9,0.552
"HIV-1 Env, reservoir clone (protein) MRVMGTQRNYPLFWNWVMIIFWMIIIGNANKLWVTVYYGVPVWKEAETTLFCASDAKAYDTEVHNVWATHACVPTDPDPREIPLENVTEKFNIWKNDMVEQMHQDIISLWDQSLKPCVKLTPLCVTLNCTNATAINATGSIVGNSTDMKNCSFNVTTIRRDKMQKEYALFYNLDIVQIDNSDNSSYRLVSCNTSVITQACPKVSFEPIPIHYCAPAGFAIIKCNNKTFNGTGPCTNVSTVQCTHGIKPVVSTQLLLNGSLAEEKIMIRSENITNNAKTIIVQLKESVTINCTRPGNNTRKSIRIGPGQTYYATGAIIGDIRQAHCNVSKKEWMNTLQKVAKQLGEHFISAQNISFNSSSGGDVEITTHSFICGGEFFYCNTTGLFNSTWIRNNTWTNNDTRIYNESSSNWTGTITLQCRIKQYVNLWQRVGRAMYAPPIRGDINCTSNITGLLLTRDGGGNNESQTFRPIGGDMRDNWRSELYKYKVVKIEPLGVAPTYAKRRVVGREKRAVGLGAVFLGFLGAAGSTMGAASITLTVQARQLLSGIVQQQSNLLKAIEAQQHLLRLTVWGIKQLQARVLALERYLRDQQLLGIWGCSGKLICPTTVPWNSSWSNKTFNEIWDNMTWLQWDKEISNYTETIYALIEQSQNQQEKNEQDLLALDKWANLWNWFDITKWLWYIKIFIMIVGGLIGLRIVFAVFSLVNRVRQGYSPLSFQILNHRQREPDRPGRIEEEGGEQDRDRSVRLVNGFLALAWDDLRSLCLFLYHRLRDSVLIATRGVELLGHSILKGLRLGWEALKHLWNLLSYWSQELKNSAISLLDTIAIAVANWTDRVIELGQAAGRAIRHIPRRIRQGLERALL",0.02,0.262,0.066,0.989
"HIV-1 Env, reservoir clone (protein) MRVMGTQRNYPLFWNWVMIIFWMIIIGNANKLWVTVYYGVPVWKEAETTLFCASDAKAYDTEVHNVWATHACVPTDPDPREIPLENVTEKFNIWKNDMVEQMHQDIISLWDQSLKPCVKLTPLCVTLNCTNATAINATGSIVGNSTDMKNCSFNVTTIRRDKMQKEYALFYNLDIVQIDNSDNSSYRLVSCNTSVITQACPKVSFEPIPIHYCAPAGFAIIKCNNKTFNGTGPCTNVSTVQCTHGIKPVVSTQLLLNGSLAEEKIMIRSENITNSAKTIIVQLKESVTINCTRPGNNTRKSIRIGPGQTYYATGAIIGDIRQAHCNVSKKEWMNTLQKVAKQLGEHFISAQNISFNSSSGGDVEITTHSFICGGEFFYCNTTGLFNSTWIRNNTWTNNDTRIYNESSSNWTGTITLQCRIKQYVNLWQRVGRAMYAPPIRGDINCTSNITGLLLTRDGGGNNESETFRPIGGDMRDNWRSELYKYKVVKIEPLGVAPTYAKRRVVGREKRAVGLGAVFLGFLGAAGSTMGAASITLTVQARQLLSGIVQQQSNLLKAIEAQQHLLRLTVWGIKQLQARVLALERYLRDQQLLGIWGCSGKLICPTTVPWNSSWSNKTFNEIWDNMTWLQWDKEISNYTETIYALIEQSQNQQEKNEQDLLALDKWANLWNWFDITKWLWYIKIFIMIVGGLIGLRIVFAVFSLVNRVRQGYSPLSFQILNHRQREPDRPGRIEEEGGEQDRDRSVRLVSGFLALAWDDLRSLCLFLYHRLRDSVLIATRGVELLGHSILKGLRLGWEALKHLWNLLSYWSQELKNSAISLLDTIAIAVANWTDRVIELGQAAGRAIRHIPRRIRQGLERALL",0.024,12.9,0.069,> 50
